Assay results as given in paper PMC6271933, “Evaluation of the Toxicity of 5-Aryl-2-Aminoimidazole-Based Biofilm Inhibitors against Eukaryotic Cell Lines, Bone Cells and the Nematode Caenorhabditis elegans” (Molecules, 2014).

Assays:
Assay type in all cases: cell-based
[1] = system: murine leukemia (L1210); assay: Cytostatic activity against tumor cell lines (cell number by Coulter counter); conditions: for TI P. aeruginosa L1210: ratio IC50 (L1210) / BIC50 (P. aeruginosa); for TI S. Typhimurium L1210: ratio IC50 (L1210) / BIC50 (S. Typhimurium)
Experimental: (§1) The IC50 was defined as the compound concentration required to inhibit cell proliferation by 50%. The therapeutic index (TI) was calculated as the ratio of the compound concentration producing toxicity (IC50) to the concentration needed to exert the desired ‘therapeutic’ effect on biofilms of Salmonella and Pseudomonas, indicated by the BIC50 (dose needed to prevent biofilm formation by 50%). The higher the therapeutic index, the broader the safety window of the compound.
(§2) Murine leukemia (L1210), human T-lymphocyte (CEM) and human cervix carcinoma (HeLa) were suspended at 300,000–500,000 cells/mL of culture medium, and 100 µL of a cell suspension was added to 100 µL of an appropriate dilution of the test compounds in 200 µL-wells of 96-well microtiter plates. After incubation at 37 °C for two (L1210), three (CEM) or four (HeLa) days, the cell number was determined using a Coulter counter. The IC50 was defined as the compound concentration required to inhibit cell proliferation by 50%.

[2] = system: human cervix carcinoma (HeLa); assay: as above; conditions: for TI P. aeruginosa HeLa: ratio IC50 (HeLa) / BIC50 (P. aeruginosa); for TI S. Typhimurium HeLa: ratio IC50 (HeLa) / BIC50 (S. Typhimurium)
Experimental: as §1, §2

[3] = system: human T-lymphocyte (CEM); assay: as above; conditions: for TI P. aeruginosa CEM: ratio IC50 (CEM) / BIC50 (P. aeruginosa); for TI S. Typhimurium CEM: ratio IC50 (CEM) / BIC50 (S. Typhimurium)
Experimental: as §1, §2

[4] = system: L1210, CEM and HeLa; assay: Cytostatic activity against tumor cell lines, statements over all cell lines; conditions: for TI with respect to Salmonella and/or Pseudomonas biofilm inhibition: IC50 / BIC50, both bacterial species

CCCCNc1ncc(-c2ccccc2)[nH]1 [compound 18]
TI P. aeruginosa L1210 [1]: 1.5 | TI S. Typhimurium L1210 [1]: 1.8 | TI P. aeruginosa HeLa [2]: 0.6 | TI S. Typhimurium HeLa [2]: 0.8 | TI P. aeruginosa CEM [3]: 21.0 | TI S. Typhimurium CEM [3]: 26.4

CC(C)CNc1ncc(-c2ccccc2)[nH]1 [compound 19]
TI P. aeruginosa L1210 [1]: 69.7 | TI S. Typhimurium L1210 [1]: 17.1 | TI P. aeruginosa HeLa [2]: 76.2 | TI S. Typhimurium HeLa [2]: 18.7 | TI P. aeruginosa CEM [3]: 318.9 | TI S. Typhimurium CEM [3]: 78.1

c1ccc(-c2cnc(NC3CCCC3)[nH]2)cc1 [compound 20]
TI with respect to Salmonella and/or Pseudomonas biofilm inhibition [4]: below 1

CCCCCNc1ncc(-c2ccc(Cl)cc2)[nH]1 [compound 23]
TI with respect to Salmonella and/or Pseudomonas biofilm inhibition [4]: below 1 | TI P. aeruginosa L1210 [1]: 3.5 | TI S. Typhimurium L1210 [1]: <0.05 | TI P. aeruginosa HeLa [2]: 3.1 | TI S. Typhimurium HeLa [2]: <0.05 | TI P. aeruginosa CEM [3]: 51.3 | TI S. Typhimurium CEM [3]: <0.8

CC(C)CNc1ncc(-c2ccc(Br)cc2)[nH]1 [compound 26]
TI P. aeruginosa L1210 [1]: 26.4 | TI S. Typhimurium L1210 [1]: 10.9 | TI P. aeruginosa HeLa [2]: 18.8 | TI S. Typhimurium HeLa [2]: 7.8 | TI P. aeruginosa CEM [3]: 255.0 | TI S. Typhimurium CEM [3]: 105.5

CCCCCNc1ncc(-c2ccc(Br)cc2)[nH]1 [compound 27]
TI P. aeruginosa L1210 [1]: 1.5 | TI S. Typhimurium L1210 [1]: 4.8 | TI P. aeruginosa HeLa [2]: 1.6 | TI S. Typhimurium HeLa [2]: 5.2 | TI P. aeruginosa CEM [3]: 36.8 | TI S. Typhimurium CEM [3]: 121.0

Brc1ccc(-c2cnc(NC3CCCC3)[nH]2)cc1 [compound 28]
TI P. aeruginosa L1210 [1]: 4.5 | TI S. Typhimurium L1210 [1]: 2.7 | TI P. aeruginosa HeLa [2]: 4.5 | TI S. Typhimurium HeLa [2]: 2.7 | TI P. aeruginosa CEM [3]: 93.6 | TI S. Typhimurium CEM [3]: 55.7

Clc1ccc(-c2cnc(NC3CCCC3)[nH]2)cc1Cl [compound 29]
TI P. aeruginosa L1210 [1]: 9.6 | TI S. Typhimurium L1210 [1]: 13.4 | TI P. aeruginosa HeLa [2]: 10.1 | TI S. Typhimurium HeLa [2]: 14.0 | TI P. aeruginosa CEM [3]: 19.7 | TI S. Typhimurium CEM [3]: 27.4

COc1ccc(-c2nc(N)[nH]c2-c2ccccc2)cc1 [compound 30]
TI S. Typhimurium L1210 [1]: 0.8 | TI S. Typhimurium HeLa [2]: 0.6 | TI S. Typhimurium CEM [3]: 0.7

Nc1nc(-c2ccc(Cl)cc2)c(-c2ccccc2)[nH]1 [compound 31]
TI S. Typhimurium L1210 [1]: 1.3 | TI S. Typhimurium HeLa [2]: 0.9 | TI S. Typhimurium CEM [3]: 1.0

Cc1ccc(-c2nc(N)[nH]c2-c2ccc(Cl)cc2)cc1 [compound 32]
TI S. Typhimurium L1210 [1]: 1.0 | TI S. Typhimurium HeLa [2]: 0.7 | TI S. Typhimurium CEM [3]: 0.8

Nc1nc(-c2ccc(C(F)(F)F)cc2)c(-c2ccc(Cl)cc2)[nH]1 [compound 33]
TI S. Typhimurium L1210 [1]: 3.8 | TI S. Typhimurium HeLa [2]: 2.4 | TI S. Typhimurium CEM [3]: 3.3

CCCCCOc1ccc(Cc2nc(N)n(Cc3ccccc3)c2-c2ccc(C)cc2)cc1 [compound 35]
TI with respect to Salmonella and/or Pseudomonas biofilm inhibition [4]: below 1 | TI P. aeruginosa L1210 [1]: 0.3 | TI S. Typhimurium L1210 [1]: 0.8 | TI P. aeruginosa HeLa [2]: 0.5 | TI S. Typhimurium HeLa [2]: 1.4 | TI P. aeruginosa CEM [3]: 0.3 | TI S. Typhimurium CEM [3]: 0.8

COc1ccc(-c2cnc(NCCCn3cc(-c4ccc(Br)cc4)nn3)[nH]2)cc1 [compound 38]
TI S. Typhimurium L1210 [1]: 0.2 | TI S. Typhimurium HeLa [2]: 0.2 | TI S. Typhimurium CEM [3]: 6.5

Brc1ccc(-c2cnc(NCCCn3cc(C4CC4)nn3)[nH]2)cc1 [compound 40]
TI / safety window with respect to Salmonella biofilm inhibition, all cell lines ([4]; IC50 / BIC50 Salmonella): higher than 16
